Values quoted from earlier work, collected in article PMC11793105, “A kalihinol analog disrupts apicoplast function and vesicular trafficking in P. falciparum malaria” (Science (New York, N.Y.), 2024).

Tested on: Endoplasmin (PF3D7_1222300)
Details: pyrimethamine 100uM, replicates r1 and r2; ref Dziekan et al 2020; cited from earlier work

## CCc1nc(N)nc(N)c1-c1ccc(Cl)cc1 [Pyr, pyrimethamine]
  Tm of Endoplasmin: 48.65 °C and 48.42 °C

Values joined by “and” are separate entries in the source; they are usually repeats but may differ in a detail not shown here. Equal values may be shown once.
